Results of unrelated studies side by side (data: NIAID ChemDB).

Shared fields: growth or infection tests; species: Bovine viral diarrhea virus; cell line: MDBK

Inhibition is in % at the dose shown (toxicity tests: loss of growth or viability). An empty or dashed field is not shown. ECn is the concentration giving n% inhibition of infection, replication or growth. Lines come from different laboratories, so protocols vary.

smiles	method	dose	read-out	strain or isolate	value
Brc1ccc(Cn2ccc3nc(-c4ccccc4)nc-3c2)cc1	ELISA		EC50	PE515 (TYPE 1)	0.1 µM
c1cc(-c2ccc(-c3nc4ccc(C5=NCCN5)cc4[nH]3)o2)ccc1C1=NCCN1		25 µM	inhibition		0%
Clc1ccc(-c2nc3ccn(Cc4ccc(Br)cc4)cc-3n2)cc1	cytopathic effect		EC50	PE515	0.021 µg/mL
N=C(N)c1ccc(-c2ccc(-c3ccc(C(=N)N)cc3)o2)cc1		5 µM	inhibition		0%
CCNC(=S)N=Nc1c(O)[nH]c2ccc([N+](=O)[O-])cc12	cytopathic effect		EC50		>50 µg/mL
Fc1ccc(Cn2ccc3nc(-c4c(F)ccc(F)c4F)nc-3c2)c(F)c1	cytopathic effect		EC50		0.021 µg/mL
O=C1Nc2ccc([N+](=O)[O-])cc2/C1=N/N=C1/SCC(=O)N1c1ccc(F)cc1	cytopathic effect		EC50		>9 µg/mL
Fc1ccccc1Cn1ccc2nc(-c3ccccc3)nc-2c1	cytopathic effect		EC50	PE515	0.009 µg/mL
O=[N+]([O-])c1ccc2c(c1)c(N=NC(=S)Nc1ccc(Cl)cc1)c(O)n2CN1CCCCC1	cytopathic effect		EC50		>19 µg/mL
Nc1ccn([C@@H]2O[C@H](CO)[C@@H](O)[C@H]2F)c(=O)n1	replicon		EC90		>100 µM
Cc1c(-c2ccc(C(=N)N)cc2)oc(-c2ccc(C(=N)N)cc2)c1C		25 µM	inhibition		>99%
CCN1C(=O)CS/C1=N/N=C1\C(=O)Nc2ccc([N+](=O)[O-])cc21	cytopathic effect		EC50		>17 µg/mL
NC(N)=Nc1ccc(-c2ccc(-c3ccc(N=C(N)N)cc3C(F)(F)F)o2)c(C(F)(F)F)c1		25 µM	inhibition		>99%
Fc1ccc(Cn2ccc3nc(-c4ccccc4)nc-3c2)cc1	cytopathic effect		EC50	PE515	0.097 µg/mL
C=CCN1C(=O)CS/C1=N/N=C1\C(=O)Nc2ccc([N+](=O)[O-])cc21	cytopathic effect		EC50		>4 µg/mL
Fc1ccc(Cn2ccc3nc(-c4c(F)cccc4F)nc-3c2)cc1	cytopathic effect		EC50	PE515	0.2 µg/mL
CCCN(CCC)CCSc1nnc2c(n1)[nH]c1ccccc12	plaque count		EC50	NADL	0.0006 µM